The test system of one series is San Angelo Virus. The class given is cell-based.
The next series has as its system Vaccinia Virus. The class given is cell-based. To be noted: SI = CC50/EC50.
A further series deals with Herpes Simplex Type I. In words: Inhibition of viral cytopathic effect (visual CPE and neutral red), HSV-1 in MRC-5 cells. Format: cell-based, type 1 herpes (HSV-1).

The structures appear in SMILES notation. Where “and” joins values, the source holds several entries; their conditions need not be identical. Equal values may be shown once. Read-outs that look alike come from different tables or passages of the source.

In the case of `NC(=O)c1ncn([C@@H]2O[C@H](CO)[C@@H](O)[C@H]2O)n1` [Ribavirin, ribavirin], the SI with San Angelo Virus is 19 and 18.

On to `Nc1ccn(C[C@@H](CO)OCP(=O)(O)O)c(=O)n1` [HPMPC, cidofovir], for which the SI is reported as more than 59 in the series on Vaccinia Virus (neutral red assay) and more than 18 with Vaccinia Virus (visual).

In the case of `Nc1nc2c(ncn2COCCO)c(=O)[nH]1` [Acyclovir, acyclovir], the SI with Herpes Simplex Type I was >167 and >250.

(Values after US20030203410A1, “Gestational agents which modulate cell proliferation” (priority 1999, published 2003).)
